# Fitness effects across NS2B and the NS3 protease domain of Zika virus

Reference: Ni et al. 2025, doi:10.1038/s41467-025-63602-z.

Protein: NS2B and the protease part of NS3 of Zika virus strain MR766. Positions count along the chain below; NS2B spans 2-131 and NS3 starts at 132.
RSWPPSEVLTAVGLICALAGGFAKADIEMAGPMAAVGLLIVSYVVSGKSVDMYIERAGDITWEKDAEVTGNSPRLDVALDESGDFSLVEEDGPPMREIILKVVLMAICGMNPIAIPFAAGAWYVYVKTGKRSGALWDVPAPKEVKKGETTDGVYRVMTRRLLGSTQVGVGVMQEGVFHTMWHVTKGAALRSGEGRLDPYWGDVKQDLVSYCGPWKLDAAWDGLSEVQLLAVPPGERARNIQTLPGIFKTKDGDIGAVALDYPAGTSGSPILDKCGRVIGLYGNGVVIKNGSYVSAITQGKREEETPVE

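Libraries of single mutants were passaged as virus pools on Huh-7.5 cells. Deep sequencing gave the change in frequency of each mutant relative to wild type, averaged over three replicate libraries (two for positions 207-308). The study looked for pockets that tolerate few changes, as a guide for inhibitor design.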

The number is log2 of the effect relative to wild type; negative values mean reduced growth, higher values better tolerance.
A change reads original residue, position, new residue.
This list holds changes to tyrosine only.
Position 1 still belongs to NS2A. In the paper, -1 or higher counts as tolerated.

For R1Y the result was -7.03.
For S2Y the result was -6.60.
For W3Y the result was -1.56.
For P4Y the result was -4.97.
For P5Y the result was -5.51.
For S6Y the result was -3.66.
For E7Y the result was -6.11.
For V8Y the result was -4.16.
For L9Y the result was -1.82.
For T10Y the result was -5.59.
For A11Y the result was -5.91.
For V12Y the result was -5.39.
For G13Y the result was -5.52.
For L14Y the result was -5.61.
For I15Y the result was -6.50.
For C16Y the result was -6.93.
For A17Y the result was -5.22.
For L18Y the result was -6.28.
For A19Y the result was -6.12.
For G20Y the result was -5.86.
For G21Y the result was -0.54.
For F22Y the result was -2.91.
For A23Y the result was -5.77.
For K24Y the result was -5.40.
For A25Y the result was -1.87.
For D26Y the result was -1.74.
For I27Y the result was -3.64.
For E28Y the result was -4.12.
For M29Y the result was -0.48.
For A30Y the result was -3.44.
For G31Y the result was -6.14.
For P32Y the result was -4.65.
For M33Y the result was 0.29.
For A34Y the result was -5.74.
For A35Y the result was -5.76.
For V36Y the result was -5.29.
For G37Y the result was -5.25.
For L38Y the result was -5.66.
For L39Y the result was -4.67.
For I40Y the result was -1.66.
For V41Y the result was -5.66.

The region was split into three libraries (1-103, 104-206, 207-308).
Six mutants with high scores were retested singly and none clearly outgrew wild type, so positive values are not proof of better growth.